This assay concerns Plasmodium falciparum. Kind of assay: Potency index, ratio of Ki for 5-(3-chlorophenyl)-6-ethylpyrimidine-2,4-diamine to KI for compound for competitive inhibition of Plasmodium dihydrofolate reductase N51I/C59R/S108N/I164L quadruple mutant expressed in Escherichia coli BL21(DE3)pLysS.

Molecules are shown by their SMILES.

Take `Cl.Nc1nc(N)c(-c2cccc(Cl)c2)c(CCCOc2ccccc2)n1`: the Ratio Ki was in the range of 3 to 30.
